Experimental data reported in patent publication US5972932A, “Anesthetic method and composition” (Eli Lilly and Company, priority 1997, dated 1999).

Tested on: 5-HT-2 receptor
Assay: pharmacological studies, 5-HT-2 receptor activity

Cc1cc2c(s1)Nc1ccccc1N=C2N1CCN(C)CC1 [olanzapine, 2-methyl-4-(4-methyl-1-piperazinyl)-10H-thieno[2,3-b][1,5]benzodiazepine]
activity at the 5-HT-2 receptor: active
